Positions count from the first letter of the chain named. Human monoclonal antibodies against the spike receptor-binding domain (heavy:light variable regions). IC50 against pseudoviruses bearing the spike of naturally observed variants; lower = stronger; >10 µg/ml means not reached at the top dose. No active / inactive call. The stated detection limit is 0.0005 µg/ml; values near or below 0.001 µg/ml lie at the floor of the assay.
B1: BD56-1265 (protein)
chain 1: QVQLVQSGAEVKKPGSSVKVSCKVSGGTLINYALSWVRQAPGQGLEWMGDIVPILDMTNYAQKFQGRVTISADKSTSTGYMELSSLRSEDTAVYYCATGGRYCSGHICYSSYFKSWGQGTLVTVSS
chain 2: EIVLTQSPGTLSLSPGERATLSCRASQSLSSSHLAWYQQKPGQAPRLLIFGASNRATGIPDRFSGSGSGTDFTLTISRLAPEDFGVYYCQQYGSSPQRTFGQGTKVEIK
B2: BD56-1260 (protein)
chain 1: QVQLVQSGADVKKPGSSVKVSCKASGGTFSSHSISWVRQAPGQGPEWIGTIIPILGISNNAQRFQGRVTITADKSTSTAYMELSSLRSEDTAVYYCARSYYYDSTDLAADAFDIWGQGTMVTVSS
chain 2: QSVLTQPPSVSGAPGQRVTVSCTGTNSNIGAGYDVHWYQQLPGTAPKLLIFGNNNRPSGVPDRFSGSKSGTSASLAITGLQAEDEADYYCQSYDSSLIGPVFGGGTKLAVL
B3: BD56-1251 (protein)
chain 1: QVQLVESGGGVVQPGRSLRLSCAASGITFSGYGMHWVRQAPGKGLEWVALIWSDGGNKYYADFVKGRFTISRDNSKNTMYLQMNSLRADDTAMYFCARETPGAGYPIDYWGQGTLVTVSS
chain 2: SYVLTQPFSVPVAPGKTARITCGGNNIGSKSVHWYQQKAGQAPVLVVYDDSDRPSGILERFSGSKSGNTATLTISRVAAGDEADYYCQVWDNNSDHVVFGGGTKLTVL
B4: BD56-1257 (protein)
chain 1: QVQLVESGGGVVQPGRSLRLSCAASGFTFSDYSMHWVRQAPGKGLEWVAVISSDGSQKYYADSVQGRLTISRDNSKNTLYLQMNRLRAEDTAVYYCARLLGYYDSSAFYGSDWWGQGTLVTVSS
chain 2: QSALTQPASVSGSPGQSITISCTGSSSDVGGYNYVSWYQVHPGKAPKLMIYDVDNRPSGVSDRFSGSKSGNTASLTVSGLQAEDEADYYCSSYTTSSTFLFGGGTKLTVL
B5: BD56-1252 (protein)
chain 1: EVQLLESGGGLVQPGGALRLSCSASGFTFSSYDMTWVRQVPGKGLEWVSVISGSGGRTYYADSVKGRFTISRDNSKNMLYLQMNSLRAEDTAVYYCANIAVQLLVVVDYWSPTDYWGQGTLVTVSS
chain 2: AIQMTQSPSSLSASVGDRVTITCRASQGIRNDLGWYQQKPGKAPRLLIFAASNLQSGVPSRFSGSGSGTDFTLTISSLQPEDFATYYCLQDYNYPYTFGQGTKLEIK
B6: BD56-1255 (protein)
chain 1: EVQLVESGGGLVQPGRSLRLSCAASGFTFDDYAMHWVRQAPGKGLEWVSGVSWNSGTIGYADSVKGRFFISRDNAKNSLYLQMIRLRAEDTALYYCAKDTRSSSTGQDEAYGMDVWGQGTTVTVSS
chain 2: QSALTQPASVSGSPGQSITFSCTGTSSDVGSYNLVSWYQQHPGKAPKLMIFEVTKRPSGISNRFSGSKSGNTASLTISGLQAEDEADYYCCSYTNNSTFEGVVFGGGTKLTVL
B7: BD56-1272 (protein)
chain 1: QVHLVQPGAEVKKPGASVTVSCKASGYTLSSYYMHWVRQAPGQGLEWMGVINPSGGGRRNAQKFQGRVTMTTDTSTGTFFMELSSLASEDTAVYYCARELIVPAAGYMDVWGKGSTVTVSS
chain 2: SYVLTQPPSVSVAPGKTARITCGGSNIGSKSVHWYQQKPGQAPALVVYDDSDRPSGIPERFSGSNSGNTATLTISRVEAGDEADYYCQVWDGSSDHFYVFGTGTKVTVL
B8: BD56-1279 (protein)
chain 1: QVQLVQSGAEVRKPGSSVKVSCKASGGTFSSHVISWVRQAPGQGLEWMGKIIPVLDITDYAQKFQDRVTITADKSTSTVYMELSSLRSEDTAVFYCARHQNTVTTFGIGHYYGMDVWGQGTTVTVSS
chain 2: DIQMTQSPSTLSASVGDKVTITCRASQSISNWLAWYQQKPGKAPKLLIYEASSLQSGVPLRFSGSGSGTEFTLTISSLQPDDFATYYCQQYNSYPSFGLGTKVEIK
B9: COV2-2098 (protein)
chain 1: EVQLLESGGGLIQPGGSLRLSCAASGFTFSNYAMSWVRQAPGKGLEWVSGIISTSGGATYNADSVRGRFTTSRDNSKNILYLQMNSLRGEDTAVYYCVKGLFDWFPLWGQGTMVTVSS
chain 2: DIVMTQSPATLSVSPGERAILSCRASQSVRSNLAWYQQKPGQAPRLLISGASTRATAIPARFSGSGSGTEFTLTITSLQSEDCAVYYCHQYNNWPQTFGQGTKVEIK
B10: BD56-1254 (protein)
chain 1: QVQLQESGPGLVKPSETLSLTCTVSGGSIRNYYWSWIRQPAGKGLEWMGRVYISGGANYIPSLKGRVTMSLDTSKNQFSLRLRSVTAADTAVYYCATSGSGTFSDYWSFDLWGRGTLVTVSS
chain 2: NFMLTQPHSVSESPGKTVTISCTRSSGSIASNYVQWYQRRPGSAPTTVIYEDDQRPSGVPDRFSGSIDSSSNSASLTISGLKTEDEADYYCQSYDTSNVVFGGGTKLTVL
B11: COV2-2068 (protein)
chain 1: EVQLVESGGGLVQPGGSLRLSCAASGFTVSSNYMSWVRQAPGKGLEWVSVIYPGGSAFYADSVKGRFTISRHNSNNTLCLQMNSLRTEDTAVYYCARSYDILTGYRDAFDIWGQGTMVTVSS
chain 2: QSVLTQPPSVSGAPGQRVTISCTGSSSNIGSGSDVHWYQQLPGTAPKLLIYGNTNRPSGVPDRFSGSKSGTSASLAITGLQAEDEADYYCQSYDSRLSGFVVFGGGTKLTVL
B12: BD56-1271 (protein)
chain 1: EVQLVESGGGLVQPGRSLRLSCAASGFTFEDYGMHWVRQAPGKGLEWVSGIGWNSGVIGYADSVKARFTISRDNAKNSLYLQMNRLRVEDTAFYFCAKDTDRLGFGELALDVWGQGTTVTVSS
chain 2: B11 chain 2 with S31A, S33Y, Y51H, T54S, R96S, F100S

Experiments:
Assay in all cases: pseudovirus neutralization IC50; higher = weaker neutralization
[1] = target: SARS-CoV-2 Omicron BA.1 spike pseudovirus
Experimental: (§1)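 Single-round VSV luciferase pseudovirus mixed with antibody dilutions for 1 h and put on Huh-7 cells for about a day; IC50 from the dose curve.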

[2] = target: SARS-CoV-2 Omicron BA.2 spike pseudovirus
Experimental: as §1

[3] = target: SARS-CoV-2 Omicron BA.2.75 spike pseudovirus
Experimental: as §1

[4] = target: SARS-CoV-2 Omicron BA.5 spike pseudovirus
Experimental: as §1

[5] = target: SARS-CoV-2 Omicron BQ.1.1 spike pseudovirus
Experimental: as §1

[6] = target: SARS-CoV-2 Omicron XBB spike pseudovirus
Experimental: as §1

[7] = target: SARS-CoV-2 early D614G spike pseudovirus
Experimental: as §1

Binder | pseudovirus neutralization IC50 [1] [µg/mL] | pseudovirus neutralization IC50 [2] [µg/mL] | pseudovirus neutralization IC50 [3] [µg/mL] | pseudovirus neutralization IC50 [4] [µg/mL] | pseudovirus neutralization IC50 [5] [µg/mL] | pseudovirus neutralization IC50 [6] [µg/mL] | pseudovirus neutralization IC50 [7] [µg/mL]
B1 | 1.18 | 0.0743 | 0.256 | > 10 | > 10 | > 10 | 0.00322
B2 | 0.184 | 0.128 | 0.188 | > 10 | > 10 | 1.85 | 0.0866
B3 | 1.48 | 0.516 | 1.88 | > 10 | > 10 | > 10 | 1.25
B4 | 0.192 | 0.311 | 0.388 | 0.208 | > 10 | 2.1 | 0.0196
B5 | 0.111 | 0.069 | 0.0576 | 0.0321 | 1.09 | > 10 | 0.107
B6 | 0.186 | 0.217 | 0.219 | > 10 | > 10 | 1.53 | 0.0205
B7 | > 10 | > 10 | > 10 | > 10 | > 10 | > 10 | > 10
B8 | 0.0191 | 0.0126 | 0.023 | > 10 | > 10 | 3.3 | 0.0846
B9 | > 10 | > 10 | > 10 | > 10 | > 10 | > 10 | 0.0067
B10 | 0.0606 | 0.0221 | 0.0568 | 0.0271 | > 10 | > 10 | 0.0331
B11 | 0.0701 | 0.115 | > 10 | 0.0427 | > 10 | > 10 | 0.0217
B12 | > 10 | > 10 | > 10 | > 10 | > 10 | > 10 | 0.151

— the supplement of paper PMC9931576
